The compounds below were run on HIV-1. Details: BCECF-based assay.
From the text: Pure compounds were initially evaluated for antiviral activity using an XTT-tetrazolium anti-HIV primary screening assay described previously (Boyd, M. R., in AIDS Etiology, Diagnosis, Treatment and Prevention (DeVita V. T., Jr., Hellman S., Rosenberg S. A., eds.), pp 305-319 (Philadelphia: Lippincott, 1988); Gustafson, K. R., et al., J. Med. Chem., 35, 1978-1986 (1992); Weislow, O. S., et al., J. Natl. Cancer Inst., 81, 577-586 (1989); Gulakowski, R. J., et al., J. Virol. Methods, 33, 87-100 (1991)). The CEM-SS human lymphocytic target cell line used in all assays was maintained in RPMI 1640 medium (Gibco, Grand Island, N.Y.), without phenol red, and was supplemented with 5% fetal bovine serum, 2 mM L-glutamine and 50 μg/ml gentamicin (complete medium). Exponentially-growing cells were pelleted and resuspended at a concentration of 2.0×10^5 cells/ml in complete medium. The Haitian variant of HIV, HTLV-IIIRF (3.54×10^6 SFU/ml), was used throughout. Frozen virus stock solutions were thawed immediately before use and resuspended in complete medium to yield […]. The appropriate amounts of the pure compounds for anti-HIV evaluations were dissolved in 100% dimethylsulfoxide (DMSO), then diluted in complete medium to the desired initial concentration (and with the final DMSO content not exceeding 1%). All serial drug dilutions, reagent additions, and plate-to-plate transfers were carried out with an automated Biomek 1000 Workstation (Beckman Instruments, Palo Alto, Calif.).
Briefly, the procedure was as follows. Uninfected CEM-SS cells were plated at a density of 1×10^4 cells in 50 μl of complete medium. Diluted HIV-1 virus was then added to appropriate wells in a volume of 50 μl to yield a multiplicity of infection of 0.6. Appropriate cell, virus and drug controls were incorporated in each experiment; the final volume in each microtiter well was 200 μl. Quadruplicate wells were used for virus-infected cells, and duplicate wells were used for uninfected cells. Plates were incubated at 37° C. in an atmosphere containing 5% CO2 for 6 days. Subsequently, aliquots of cell-free supernatant were removed from each well using the Biomek, and analyzed for reverse transcriptase activity, p24 antigen production and synthesis of infectious virions as described (Gulakowski, R. J., et al., J. Virol. Methods, 33, 87-100 (1991)). Cellular growth or viability then was estimated on the remaining contents of each well using the XTT (Weislow, O. S., et al., J. Natl. Cancer Inst., 81, 577-586 (1989)), BCECF (Rink, T. L., et al., J. Cell. Biol., 95, 189-196 (1982)) and DAPI (McCaffrey, T. A., et al., In Vitro Cell Develop. Biol., 24, 247-252 (1988)) assays as described (Gulakowski, R. J., et al., J. Virol. Methods, 33, 87-100 (1991)).

SMILES | TI (IC50/EC50) BCECF
CCCc1cc(=O)oc2c3c(c4c(c12)OC(C)(C)CC4)O[C@@H](C)[C@H](C)[C@@H]3O [DH-costatolide, 7,8-dihydrocostatolide] | 33
CCCc1cc(=O)oc2c3c(c4c(c12)OC(C)(C)C=C4)O[C@@H](C)[C@H](C)[C@@H]3O [Costatolide, costatolide] | 40
CCCc1cc(=O)oc2c3c(c4c(c12)OC(C)(C)C=C4)O[C@H](C)[C@@H](C)[C@@H]3O [calanolide A] | 89
CCCc1cc(=O)oc2c3c(c4c(c12)OC(C)(C)CC4)O[C@H](C)[C@@H](C)[C@@H]3O [DH-calanolide A, 7,8-dihydrocalanolide A] | 98

Same assay, conditions: FIGS. 4A-D, IC50/EC50

SMILES | in vitro therapeutic index
CCCc1cc(=O)oc2c3c(c4c(c12)OC(C)(C)C=C4)O[C@H](C)[C@@H](C)[C@@H]3O [calanolide A] | ≥ 130

Same assay, conditions: XTT-based assay

SMILES | TI (IC50/EC50) XXT
CCCc1cc(=O)oc2c3c(c4c(c12)OC(C)(C)CC4)O[C@@H](C)[C@H](C)[C@@H]3O [DH-costatolide, 7,8-dihydrocostatolide] | 62
CCCc1cc(=O)oc2c3c(c4c(c12)OC(C)(C)C=C4)O[C@@H](C)[C@H](C)[C@@H]3O [Costatolide, costatolide] | 43
CCCc1cc(=O)oc2c3c(c4c(c12)OC(C)(C)C=C4)O[C@H](C)[C@@H](C)[C@@H]3O [calanolide A] | 110
CCCc1cc(=O)oc2c3c(c4c(c12)OC(C)(C)CC4)O[C@H](C)[C@@H](C)[C@@H]3O [DH-calanolide A, 7,8-dihydrocalanolide A] | 54

Reference: patent publication US6774141B1, “Calanolide and related antiviral compounds, compositions, and uses thereof” (The United States of America as represented by the …, priority 1992, dated 2004)
